Primary screen of a compound library

Measurements from “University of Dundee, Small-Polar-MMV Screening Library” (2021), ChEMBL document CHEMBL3988442.

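Growth of Mycobacterium tuberculosis over 3 days (7H9 medium with glucose and tyloxapol); the read-out is not stated. Tested at 500 µM. Higher reads as more growth inhibition (inferred: compounds with an IC50 in retests scored well above the rest). Size under these conditions: about 18,000 compounds, about 1,400 of them at 50% or above in at least one test.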

The filed quantity is “Percent Effect” (%). How 0% and 100% were set is not recorded. Most values in the screen are low, and negative values occur. The entries come from a sample that favours strong results.

| SMILES | percent effect |
|---|---|
| `Cc1[nH]nc(C(N)=O)c1NC(=O)c1cc(F)cc(Br)c1` | 21.37% |
| `Cc1ccc(C)c(C(=O)N2C[C@@H](CO)[C@H](N(C)C)C2)c1` | 5.915% |
| `CCN(C)C(=O)c1ccc(-n2cncn2)cc1` | 6.876% |
| `Cc1cc(C2CCC2)nc(N2CCNC(=O)C2)n1` | 64.52% |
| `O=C(Cc1ccccc1)OCCN1CCOCC1` | 7.931% |
| `CN(C)S(=O)(=O)CCCN1CCCCC1c1nccs1` (stereo not given) | 7.646% |
| `CN(CCCN)C(=O)Cc1cccc(Br)c1` | 32.97% |
| `O=C(CCN1CCCC(O)C1)N1CCc2ccccc21` (stereo not given) | -7.817% |
| `CN(Cc1cn(-c2ccc(Cl)c(Cl)c2)nn1)S(C)(=O)=O` | 3.694% |
| `NCC(=O)Nc1ccccc1-n1cncn1` | 3.477% |
| `COc1ccc(CCN)c(O)c1` | 74.96% |
| `COc1ccc(NC(=O)NC2CCN(C)CC2)cc1` | -2.561% |
| `N#CC1(NC(=O)CN2CCC(CO)CC2)CCCCC1` | 12.38% |
| `CNC(=O)CN1CCC(Oc2ccccc2)C1` (stereo not given) | 47.39% |
| `N#CCS(=O)(=O)N1CCCCC1` | 6.028% |
| `COCc1nnc(N)s1` | 6.122% |
| `OCc1cc(CNc2ncccn2)ccc1F` | 13.25% |
| `COCC(=O)Nc1ccc(-n2cccn2)nc1` | 20.19% |
| `COCCNCc1cc(Cl)ccc1OCC(N)=O` | 14.09% |
| `Cc1nn(C(C)C)c(C)c1NC(=O)N1CCC[C@H]1CO` | 25.49% |
| `OC1(CNc2nc(-c3ccccc3)ns2)CCSC1` (stereo not given) | 73.37% |
| `COC[C@@H]1CCCN1C(=O)Nc1cnns1` | 0.9428% |
| `CC(=O)c1cc(CN2Cc3cnn(CCO)c3C2)cs1` | -6.77% |
| `CC(C)CCC(=O)N1CCN(CC(O)C(F)(F)F)CC1` (stereo not given) | 42.66% |
| `CCCC1=NNC(=O)C1` | 14.42% |
| `Cc1nc(C)c(CC(=O)NCC2CNCCO2)s1` (stereo not given) | -3.318% |
| `Cc1cc(C(=O)NCC(=O)Nc2ccccc2Br)on1` | 35.28% |
| `CO[C@@H]1COCC[C@H]1NC(=O)c1ccncc1Cl` | 8.262% |
| `CCN(C(=O)Cc1c[nH]c(=O)[nH]c1=O)[C@H]1COC[C@@H]1O` | 8.548% |
| `CN(C(=O)C(CN)c1ccccc1)c1cccc(F)c1` (stereo not given) | -6.957% |
| `NCCCc1nc(-c2ccccn2)cs1` | 34.19% |
| `NC(=O)C1CCN(C(=O)c2cc3cc(Br)ccc3o2)C1` (stereo not given) | 5.813% |
| `CN(CC(N)=O)C(=O)C(C)(C)c1ccc(Cl)cc1` | 14.24% |
| `CC1(CO)CCCN1` (stereo not given) | 4.146% |
| `CN(Cc1nnc2n1CCC2)C(=O)C1CCCCC1` | 4.45% |
| `CN(CCC1CCCN1C)CC(=O)N(C)C` (stereo not given) | -0.9604% |
| `NS(=O)(=O)c1cc(Cl)cc(CO)c1` | 1.49% |
| `COc1cccnc1C(F)(F)F` | 1.292% |
| `Cc1ccc(S(=O)(=O)N[C@@H]2CCOC[C@H]2O)s1` | 13.73% |
| `NCCCC(=O)N1CCc2ccccc2C1` | 14.7% |
| `CC(C)COCCN1CCCN(C)C(=O)C1` | 14.08% |
| `O=C(CNc1ccccc1OC(F)F)N1CCNC1=O` | 40.07% |
| `COCCN1CCN(Cc2cc(C(C)(C)C)[nH]n2)CC1` | 12.79% |
| `NC(c1ccccc1)C1(CO)CCOCC1` (stereo not given) | 23.09% |
| `CC(C)n1ccnc1CN1CCOC(CN)C1` (stereo not given) | -1.503% |
| `CCC(=O)NCC(C)(CC)NC(=O)CC` (stereo not given) | 1.327% |
| `O=C(CCn1ccnc1)N1CCCCC1CO` (stereo not given) | -8.699% |
| `CCCc1ccc(C(=O)N2CCC(N)CC2)cc1` | 22.14% |
| `CC(C)CS(=O)(=O)NCc1ccc2c(c1)OCO2` | 72.54% |
| `CN(C)C(CN)c1ccc(F)cc1` (stereo not given) | 55.37% |
| `CN(CCCO)C(=O)c1ccc(Cl)cc1F` | 18.55% |
| `c1csc(CNC2CC2)n1` | 10.5% |
| `CO[C@H]1CNC[C@H]1OC` | 0.03363% |
| `C[S+]([O-])C1(CNC(=O)c2ccnc3ccccc23)CC1` (stereo not given) | 9.518% |
| `CCCn1c(O)nnc1SCc1cccc(OC)n1` | 57.05% |
| `COC(=O)CCSc1nncs1` | 7.075% |
| `NS(=O)(=O)CC1CCOCC1` | 7.782% |
| `Cc1nccn1C1CCCNC1` (stereo not given) | 7.721% |
| `Nc1nc(C(F)(F)F)ns1` | 4.315% |
| `COCCNC(=O)NCCN1CCc2sccc2C1` | 3.867% |
| `COC(=O)CN1CCN(c2ccccc2O)CC1` | 20.03% |
| `CN(Cc1cccs1)C(=O)CSc1n[nH]c(=O)n1C` | 4.618% |
| `COCC(C)(O)C(=O)N(C)Cc1ccccc1` (stereo not given) | 5.638% |
| `CS(=O)(=O)N1CCCCC1C(=O)N1CCOCC1` (stereo not given) | -8.964% |
| `CSCCC(=O)NC(C)c1ccc2c(c1)OCCCO2` (stereo not given) | 55.61% |
| `CCn1ncnc1CNC(=O)Cn1nc(C)c(Cl)c1C` | 9.142% |
| `CCc1noc(CC2CCNCC2)n1` | 2.115% |
| `FC(F)(F)CC1CNCCO1` (stereo not given) | 11.57% |
| `Cc1nnc(CN2CCCSCC2)o1` | 28.81% |
| `NC(=O)NC(=O)CCn1cc(-c2ccccc2)cn1` | -12.37% |
| `O=C(CNC1=NCCN1)Nc1cccc(F)c1` | 28.47% |
| `N#Cc1ccc(NCC(=O)NC2CCOCC2)cc1` | 9.593% |
| `CC(C)c1cccc(S(=O)(=O)N2CCCC2CN)c1` (stereo not given) | 64.67% |
| `CCC1CN(C)c2ccccc2CN1CCC(=O)NC` (stereo not given) | 82.9% |
| `CNC(=O)C1CCCN1C(=O)c1ccccc1O` (stereo not given) | 14.71% |
| `O=C(CSc1nnc2n1CCCCC2)N1CCCC1` | 8.076% |
| `CCCOc1nc(C)cc(COC)c1C(N)=O` | -3.103% |
| `CCc1[nH]nc(N)c1-c1ccc2c(c1)OCO2` | 39.54% |
| `CC(C)C[C@H](N)C(=O)N(C)c1ccccc1` | 64.58% |
| `OCc1cc(N2CCC(O)CC2)ccn1` | 3.285% |
| `Nc1nc(CCCNC(=O)CN2CCCC2)cs1` | 5.478% |

For reference, 8 entries once more:

SMILES,percent effect
CC1(CO)CCCN1 (stereo not given),4.146%
COCC(C)(O)C(=O)N(C)Cc1ccccc1 (stereo not given),5.638%
OCc1cc(N2CCC(O)CC2)ccn1,3.285%
COC[C@@H]1CCCN1C(=O)Nc1cnns1,0.9428%
COC(=O)CCSc1nncs1,7.075%
OCc1cc(CNc2ncccn2)ccc1F,13.25%
Cc1nnc(CN2CCCSCC2)o1,28.81%
Cc1nccn1C1CCCNC1 (stereo not given),7.721%